The nature of data set [1]: Selectivity index, ratio of IC50 for human HepG2 cells to IC50 for Plasmodium falciparum TM91C235. In kind it is toxicity, cell-based.
Data set [2] in a line: Selectivity index, ratio of IC50 for human HepG2 cells to IC50 for Plasmodium falciparum W2. In kind it is toxicity, cell-based.
Data set [3] is described as follows: Selectivity index, ratio of IC50 for human HepG2 cells to IC50 for Plasmodium falciparum D2. In kind it is toxicity, cell-based.
Data set [4] deals with Plasmodium falciparum. Briefly: Antimalarial activity against multidrug-resistant Plasmodium falciparum TM90C2A after 72 hrs by MSF assay. The format is functional, organism-based.

Structures are written as SMILES.

In general, IC90 refers to the concentration at which the effect reaches the 90% level. The low end stands for an effect from little substance, the high end for a need for much substance.

Regarding `Clc1ccc2c(NCCCNCc3ccc(Br)cc3)ccnc2c1`, the results for the Ratio IC50 in data set [1], in data set [2] and in data set [3] were 800, 834 and 1250, respectively. Besides, the IC90 in data set [4] was 0.0101 µM.

As for `Clc1ccc2c(NCCNCc3ccccc3)ccnc2c1`, the Ratio IC50 in data set [1] is 2630; in data set [2], 1780; in data set [3], 3030.

Values taken from ChEMBL document CHEMBL2401699, “4-Amino-7-chloroquinolines: probing ligand efficiency provides botulinum neurotoxin serotype A light chain inhibitors with significant antiprotozoal activity” (J Med Chem, 2013).
